The supplement of paper PMC9931576
Human monoclonal antibodies against the spike receptor-binding domain (heavy:light variable regions). IC50 against pseudoviruses bearing the spike of naturally observed variants; lower = stronger; >10 µg/ml means not reached at the top dose. No active / inactive call. The stated detection limit is 0.0005 µg/ml; values near or below 0.001 µg/ml lie at the floor of the assay.

B1: BD55-6368 (protein)
chain 1: EVQLVESGGGLVKPGGSLRLSCAASGFTFSTFSMHWVRQAPGKGLEWVSSISGRSSLNFYADSVKGRFTISRDNAKNSLFLQMNSLRAEDTAVYYCARESSDVYNVNFDYWGQGTLVTVSS
chain 2: DIQMTQSPSSLSASVGDRVTITCRASQTIRNYLNWYQQKPGKAPKLLVYAASSLHSGVPSRFSGSGSGTDFTLTISSLQPEDFATYYCQQGYISPQATFGPGTKVEIK
B2: BD55-6363 (protein)
chain 1: QVQLVESGGGLVKPGGSLRLSCAASGFTFSDYYMSWIRQAPGKGLEWVSYISGSGSIQDYPDSVKGRFTVSRDNTKNSLYLQMNSLRAEDTAVYYCARGTKSQYYYDESGYSTQYWGQGTLVTVSS
chain 2: DVVMTQSPLSLPVTLGQPASISCRSSQSLVYADGSTYLNWFYQRPGQSPRRLIYRVSDRDSGVPDRFSGSGSGTDFTLKISRVEAEDVGIYYCMQGTHWPPTFGQGTKLEIK
B3: BD55-6374 (protein)
chain 1: EVQLVESGGGLVQPGGSLRLSCAASGFSFSGSAMHWVRQAPGKGLEYVSSITSDGGGTFYADSVKGRFTISRDNSKKTLYLQMGSLRADDIGVYYCAREGPYVFLTLDSWGQGTLVTVSS
chain 2: DIQMTQSPSSLSASVGDRVTITCRASQNINGYLNWYQQKPGKGPKLLIYAASTLESGVPSRFSGSGSGTEFTLTISSLQPEDFATYYCQQSYVTPLYTFGQGTKLEIK
B4: BD55-6356 (protein)
chain 1: EVQLLESGGDLVQPGGSLRLSCAASRFTFSSYAMTWVRQAPGKGLEWVSTISGDGASTFYPDSVKGRFTISRDNSKNTLYLQMNSLRAEDTAVYYCAKSPIPPSDSSGYYWIDENDAFDIWGQGTMVTVSS
chain 2: QAVVTQEPSLTVSPGGTVTLTCGSSIGAVTSGHYPYWFQQKPGQAPRTLIYDTWNKHSWTPARFSGSLLGGKAALTLSGAQPEDEAEYYCLLSYSGAREWVFGGGTKLTVI
B5: BD55-6379 (protein)
chain 1: QVQLVQSGTEVKKPGSSVKVSCRASGGTLNTYAFNWVRQAPGQGLEWVGRIFPTPGIADYAQKFQGRVTITADKSTSAGYMELRSLSHEDTAVYYCARAPPRGYSGYDLLGNDPFDIWGQGTMVTVSS
chain 2: QSVLTQPPSVSGAPGQRVTISCTGSSSNIGAGYDVHWYQHVPGTAPKLLIYGNNNRPSGVPDRFSGSKSGTSGSLAITGLQPDDEADYYCQSYDTSLSGSYVFGTGTKVTVL
B6: BD55-6375 (protein)
chain 1: EVQLVQSGAEVKKPGESLKISCKGSGHNFIVYWIAWVRQMPGKGLEWMGIIYPGDSETKYSPSFQGQVTISADKSINTAYLQWSSLKASDTAIYYCATAGGWLGDSFDFWGQGTLVTVSS
chain 2: EIVLTQSPGTLSLSPGERATLSCRASQSITRSYLAWYQQKPGQAPRLLIYGASSRATGIPDRFSGSGSGTDFTLTIRRLEPDDVAVYYCQQYGGSPLTFGGGTKVEIK

How the values were obtained:
Test in all cases: pseudovirus neutralization IC50; higher = weaker neutralization
[1] = target: SARS-CoV-2 Omicron BA.1 spike pseudovirus
Protocol: (§1)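 Single-round VSV luciferase pseudovirus mixed with antibody dilutions for 1 h and put on Huh-7 cells for about a day; IC50 from the dose curve.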

[2] = target: SARS-CoV-2 Omicron BA.2 spike pseudovirus
Protocol: as §1

[3] = target: SARS-CoV-2 Omicron BA.2.75 spike pseudovirus
Protocol: as §1

[4] = target: SARS-CoV-2 Omicron BA.5 spike pseudovirus
Protocol: as §1

[5] = target: SARS-CoV-2 Omicron BQ.1.1 spike pseudovirus
Protocol: as §1

[6] = target: SARS-CoV-2 Omicron XBB spike pseudovirus
Protocol: as §1

[7] = target: SARS-CoV-2 early D614G spike pseudovirus
Protocol: as §1

| Binder | pseudovirus neutralization IC50 [1] [µg/mL] | pseudovirus neutralization IC50 [2] [µg/mL] | pseudovirus neutralization IC50 [3] [µg/mL] | pseudovirus neutralization IC50 [4] [µg/mL] | pseudovirus neutralization IC50 [5] [µg/mL] | pseudovirus neutralization IC50 [6] [µg/mL] | pseudovirus neutralization IC50 [7] [µg/mL] |
| --- | --- | --- | --- | --- | --- | --- | --- |
| B1 | > 10 | > 10 | > 10 | > 10 | > 10 | > 10 | > 10 |
| B2 | 2.73 | 2.16 | 2.65 | 3.61 | 3.57 | 4.12 | 2.82 |
| B3 | 6.66 | 4.47 | 3.22 | 5.64 | 3.08 | 4.91 | 6.37 |
| B4 | > 10 | > 10 | > 10 | > 10 | > 10 | > 10 | > 10 |
| B5 | > 10 | > 10 | > 10 | > 10 | > 10 | > 10 | 0.0816 |
| B6 | > 10 | > 10 | > 10 | > 10 | > 10 | > 10 | 4.24 |
